We go through 2 substances from publication PMC4271523, “Differential Effects of a Mutation on the Normal and Promiscuous Activities of Orthologs: Implications for Natural and Directed Evolution” (Molecular Biology and Evolution, 2014).

The test system of data set [1] is CC(=O)N[C@@H](CCC=O)C(=O)O. The data set is described as follows: purified protein. The following applies: 1 mM NADP+, 100 mM potassium phosphate pH 7.6, room temperature, reverse (dehydrogenase) direction, promiscuous substrate, apparent KM, NAGSA in equilibrium with its hydrate.
A further data set relates to N[C@@H](CCC=O)C(=O)O. The data set is described as follows: purified protein. The following applies: 1 mM NADP+, 100 mM potassium phosphate pH 7.6, room temperature, reverse (dehydrogenase) direction, apparent KM corrected to free GSA aldehyde/hydrate.

As for “Yersinia enterocolitica ProA (Yersinia enterocolitica subsp. enterocolitica 8081; S333G)”, in data set [1], the Km turned out to be 1200 ± 100 µM, the kcat was 0.00012 s⁻¹ and the catalytic efficiency (kcat/Km) came to 0.095 M⁻¹ s⁻¹. Moreover, in the data set with N[C@@H](CCC=O)C(=O)O, the Km turned out to be 56 ± 2 µM, the catalytic constant (kcat) is 7.6 s⁻¹ and the kcat/Km worked out at 134000 M⁻¹ s⁻¹.

As for “Yersinia enterocolitica ProA (Yersinia enterocolitica subsp. enterocolitica 8081; E385A/S333G)”, in data set [1], the Km came to 52 ± 8 µM, the kcat is 0.0037 s⁻¹ and the catalytic efficiency (kcat/Km) was 73 M⁻¹ s⁻¹.
